Results of unrelated studies side by side (data: NIAID ChemDB).

Shared fields: tests in culture; organism: Human cytomegalovirus; measure: EC90

Rows are shuffled and stem from different studies. ECn: concentration that inhibits the pathogen or its effect by n%.

Nc1nc2c(ncn2COC(CO)CO)c(=O)[nH]1 ; strain or isolate: AD169 ; method: plaque count ; cells: HFF ; result: 19 µM
C[C@@H]1O[C@@H](n2c(Cl)nc3cc(Cl)c(Cl)cc32)[C@H](O)[C@@H]1O ; strain or isolate: AD169 ; method: virus yield ; cells: HFF ; result: 0.82 µM
O=C(NCc1ccc(Cl)cc1)c1c[nH]c2c(F)cc(CCCO)cc2c1=O ; strain or isolate: GDGrP53 ; method: plaque count ; result: 2.9 µM
O[C@@H]1[C@H](O)[C@H]2Cn3nnc4ccc(=S)n(c43)[C@@H]1O2 ; cells: Huh7 ; result: 10 µM
OC[C@H]1O[C@@H](n2c(Br)nc3cc(Cl)c(Cl)cc32)[C@H](O)[C@@H]1O ; strain or isolate: 2916 (bdcrb maribavir-resistant) ; method: virus yield ; cells: HFF ; result: 0.38 µM
CN(C)c1ccc(/C=N/Nc2nc(-c3ccc(F)cc3)cs2)cc1 ; strain or isolate: AD169 ; method: cytopathic effect ; cells: Human foreskin fibroblasts ; result: >300 µM
O=c1c(Br)cc2nnn3c2n1[C@@H]1O[C@H](C3)[C@@H](O)[C@H]1O ; cells: Huh7 ; result: 1.9 µM
OC[C@H]1O[C@@H](n2c(Br)nc3cc(Cl)c(Cl)cc32)[C@H](O)[C@@H]1O ; strain or isolate: AD169 ; method: virus yield ; cells: HFF ; result: 2 µM
Nc1nc2c(ncn2COC(CO)CO)c(=O)[nH]1 ; strain or isolate: 2916 (bdcrb maribavir-resistant) ; method: virus yield ; cells: HFF ; result: 1.5 µM
Cn1cc(C(=O)NCc2ccc(Cl)cc2)c(=O)c2cc(CN3CCOCC3)ccc21 ; strain or isolate: AD169 ; method: plaque count ; cells: HFF ; result: 8.9 µM
O=c1c(Cl)cc2nnn3c2n1[C@@H]1O[C@H](C3)[C@@H](O)[C@H]1O ; cells: Huh7 ; result: 2.1 µM
O=C(NCc1ccc(Cl)cc1)c1c[nH]c2c(F)cccc2c1=O ; strain or isolate: 759rD100 ; method: plaque count ; result: 25.4 µM
O[C@@H]1[C@H](O)CO[C@H]1n1c(Cl)nc2cc(Cl)c(Cl)cc21 ; strain or isolate: TOWNE ; method: virus yield ; cells: HFF ; result: 0.5 µM
COCCNc1cc(=O)n2c3c1nnn3C[C@H]1O[C@@H]2[C@H](O)[C@@H]1O ; cells: Huh7 ; result: >100 µM
Nc1nc2c(ncn2COC(CO)CO)c(=O)[nH]1 ; strain or isolate: VR4990 (ganciclovir-resistant) ; method: plaque count ; result: 33.7 µM
CC(C)Nc1nc2cc(Cl)c(Cl)cc2n1[C@H]1O[C@@H](CO)[C@H](O)[C@@H]1O ; strain or isolate: TOWNE ; method: virus yield ; cells: HFF ; result: 0.3 µM
CCNc1cc(=O)n2c3c1nnn3C[C@H]1O[C@@H]2[C@H](O)[C@@H]1O ; cells: Huh7 ; result: >100 µM

For reference, 2 entries again:

CN(C)c1ccc(/C=N/Nc2nc(-c3ccc(F)cc3)cs2)cc1 ; strain or isolate: AD169 ; method: cytopathic effect ; cells: Human foreskin fibroblasts ; result: >300 µM
Nc1nc2c(ncn2COC(CO)CO)c(=O)[nH]1 ; strain or isolate: 2916 (bdcrb maribavir-resistant) ; method: virus yield ; cells: HFF ; result: 1.5 µM